According to PMC5593926 (Scientific Reports, 2017):
For some of these results: Plain letter strings leave the end groups untold.

What was measured:
[1] = Secondary structure analysis by circular dichroism; assay type: physicochemical; conditions: 600 µg/ml, 190-250 nm, 0.1 cm path length, triplicate
Procedure: Conformational studies of constructs were performed using a J-710 spectropolarimeter (Jasco Corporation, Japan). Samples with 600 µg/ml concentration were transferred into a low volume quartz cuvette with 0.1 cm path length. CD spectra were analysed between 250 nm and 190 nm wavelengths. Measurements were performed in triplicate (reported as an average of readings). Spectral results are reported as mean residual ellipticity (θ) versus wavelength (nm).

[2] = Boc solid-phase peptide synthesis; p-MBHA; HATU/DIPEA; conditions: whole synthesis, scale of the general procedure 0.2 mmol
[3] = general procedure: peptide synthesis; Rink amide MBHA (0.45 mmol/g); p-methylbenzhydrylamine resin (p-MBHA); HATU/DIPEA; conditions: whole synthesis, analytical HPLC, ESI-MS, scale of the general procedure 0.2 mmol

Sequence | Secondary structure (Determined by CD) [1] | isolated yield [2] [%] | final HPLC purity [3] [%]
KNYIDKQLLPIVNKQS [ØP1] | Random coil | – | –
SELLSLINDMPITNDQKKLMSNN [IIP3] | Random coil | – | –
AKFVAAWTLKAAA | – | 52 | ≥95
